A mixed list of measured activities; the numbers were collected in NIAID ChemDB.

Shared fields: toxicity to cultured cells; cell line: HSB-2; read-out: CC50

CCn: concentration that lowers growth or viability of the cells by n%. Lines come from different laboratories, so protocols vary.

structure,result
CCCCCCCC/C=C\CCCCCCCCOCCOP(=O)(O)CO[C@H](CO)Cn1ccc(N)nc1=O,>1.6 µM
C=CCNc1nc(N)nc2c1ncn2/C=C1/C[C@@H]1CO,>184 µM
Cc1cn([C@@H]2S[C@@H](CO)[C@H](O)[C@H]2O)c(=O)[nH]c1=O,>100 µg/mL
CCCCCCCCCCCCCCCCOP(=O)(O)CO[C@H](CO)Cn1ccc(N)nc1=O,>1 µM
Nc1nc2c(ncn2COC(CO)CO)c(=O)[nH]1,200 µM
C=CCOc1nc(N)nc2c1ncn2/C=C1/C[C@@H]1CO,46 µM
Nc1nc2c(ncn2COCCO)c(=O)[nH]1,200 µM
CCCCCCCCCCCCCCCCCCOCCCOP1(=O)CO[C@@H](Cn2ccc(N)nc2=O)CO1,>1 µM
Nc1nc(OCC2CC2)c2ncn(/C=C3/C[C@@H]3CO)c2n1,54 µM
Nc1nc2c(ncn2CC(CO)CCO)c(=O)[nH]1,640 µM
CCCCCCCC/C=C\CCCCCCCOCCCOP1(=O)CO[C@@H](Cn2ccc(N)nc2=O)CO1,>1 µM
O=C(O)P(=O)(O)O,>166 µM
COc1nc(N)nc2c1ncn2/C=C1/CC1(CO)CO,>168 µM
O[C@@H]1[C@H](O)[C@H](O)CO[C@H]1n1c(Br)nc2cc(Cl)c(Cl)cc21,>126 µM
CCCSc1nc(N)nc2c1ncn2/C=C1/C[C@@H]1CO,61 µM
CCCCCCCCCCCCOCCCOP(=O)(O)CO[C@H](CO)Cn1ccc(N)nc1=O,>1 µM

Again, the opening 2 rows:

structure | result
CCCCCCCC/C=C\CCCCCCCCOCCOP(=O)(O)CO[C@H](CO)Cn1ccc(N)nc1=O | >1.6 µM
C=CCNc1nc(N)nc2c1ncn2/C=C1/C[C@@H]1CO | >184 µM